# Measurements published in PMC9942557, “Bolaamphiphile Analogues of 12-bis-THA Cl2 Are Potent Antimicrobial Therapeutics with Distinct Mechanisms of Action against Bacterial, Mycobacterial, and Fungal Pathogens” (mSphere, 2022).
# Columns and labels:
# Experiment in all cases: Selectivity index (toxicity/potency)
# M. tuberculosis Bleupan = format: cell-based, Mycobacterium tuberculosis; settings: ratio of average toxicity (HEK293 and HeLa) to potency
# Description: TABLE 3 Selectivity indices of bolaamphiphiles | column: Selectivity of^a: / 12-bis-THA Cl2; Selectivity of^a: / Dequalinium; Selectivity of^a: / Penta-bola; Selectivity of^a: / Octa-bola; Selectivity of^a: / Octa-C8; Selectivity of^a: / Octa-C6
# [1] = test system: Gram-negative bacteria (avg); format: cell-based; settings: ratio of average toxicity (HEK293 and HeLa) to average potency
# Description: (§1) TABLE 3 Selectivity indices of bolaamphiphiles | column: Selectivity of^a: / 12-bis-THA Cl2; Selectivity of^a: / Dequalinium; Selectivity of^a: / Quino-bola; Selectivity of^a: / Penta-bola; Selectivity of^a: / Hepta-bola; Selectivity of^a: / Octa-bola; Selectivity of^a: / Octa-C10; Selectivity of^a: / Octa-C8; Selectivity of^a: / Octa-C6
# Fungi (avg) = format: cell-based, Candida spp.; settings: ratio of average toxicity (HEK293 and HeLa) to average potency
# Description: as §1
# [2] = test system: Gram-positive bacteria (avg); format: cell-based; settings: ratio of average toxicity (HEK293 and HeLa) to average potency
Structure (SMILES),Selectivity index (M. tuberculosis Bleupan),Selectivity index [1],Selectivity index (Fungi (avg)),Selectivity index [2]
"Nc1c2c([n+](CCCCCCCCCCCC[n+]3c4c(c(N)c5ccccc53)CCCC4)c3ccccc13)CCCC2 [12-bis-THA Cl2, 12,12′-(Dodecane-1,12-diyl)-bis-(9-amino-1,2,3,4-tetrahydroacridinium) chloride]",7.24,0.48,15.8,19.5
Nc1c2c([n+](CCCCCCCCCCCC[n+]3c4c(c(N)c5ccccc53)CCCCC4)c3ccccc13)CCCCC2 [Hepta-bola],,0.44,8.00,10.4
Nc1c2c([n+](CCCCCC[n+]3c4c(c(N)c5ccccc53)CCCCCC4)c3ccccc13)CCCCCC2 [Octa-C6],113,<1.63,<6.52,2.94
Nc1c2c([n+](CCCCCCCC[n+]3c4c(c(N)c5ccccc53)CCCCCC4)c3ccccc13)CCCCCC2 [Octa-C8],41.0,0.90,8.48,18.1
Nc1c2c([n+](CCCCCCCCCC[n+]3c4c(c(N)c5ccccc53)CCCCCC4)c3ccccc13)CCCCCC2 [Octa-C10],,1.07,11.6,23.9
Nc1c2c([n+](CCCCCCCCCCCC[n+]3c4c(c(N)c5ccccc53)CCC4)c3ccccc13)CCC2 [Penta-bola],45.8,0.35,22.3,10.9
